Pooled drug test results. Numbers come from NIAID ChemDB, via PubChem.

Shared fields: whole-cell or culture tests; agent: Cryptococcus neoformans

Conditions beyond the fields shown may differ between rows. An empty or dashed field is not shown. MIC50, MIC90 and the like: level of inhibition, or share of isolates inhibited.

compound,method,strain or isolate,endpoint,result
COc1ccc(-c2c(C#N)c(OC)nc3c2CSc2ccccc2-3)cc1,,25,MIC,12.5 µg/mL
CC[C@@H]([C@H](C)O)n1ncn(-c2ccc(N3CCN(c4ccc(OC[C@@H]5CO[C@@](Cn6cncn6)(c6ccc(F)cc6F)C5)cc4)CC3)cc2)c1=O,,2337 (HIV+),MIC,0.25 µg/mL
CC(C)C(CCC(C)C1CCC2C3CC=C4C[C@@H](O)CCC4(C)C3CCC12C)NS(=O)(=O)O,,IFM.40092,MIC90,0.2 µg/mL
CCOC(=O)C(=C1SCCCS1)n1ccnc1,,,MIC,>100 µg/mL
CC(C)C(N)CCC(C)C1CC[C@@]2(C)C3=C(CCC12C)C1(C)CC[C@H](O)C(C)(C)C1CC3,,A.34144,MIC90,0.2 µg/mL
CCCCCCCCC(Cn1ccnc1)c1ccc(Cl)cc1,,,MIC,<1 µg/mL
CCC(C)n1ncn(-c2ccc(N3CCN(c4ccc(OC[C@H]5CO[C@](Cn6cncn6)(c6ccc(Cl)cc6Cl)O5)cc4)CC3)cc2)c1=O,,A26037,MFC99,>2 µg/mL
CC(C)C(=N)CCC=C1CO[C@@](Cn2ccnc2)(c2ccc(F)cc2F)C1,,IFM.40092,MIC,3.14 µg/mL
O=C1C[C@@H](c2ccc(F)cc2)Cc2cc(O)cc(O)c21,,Clinical isolate H99,MIC,27 µg/mL
CC(C)C(CCC(C)C1CC[C@@]2(C)C3=C(CCC12C)C1(C)CC[C@H](O)C(C)(C)C1CC3)NCc1ccccc1,,A.34144,MIC90,3.13 µg/mL
COc1ccc(-c2c(C#N)c(OC)nc3c2CSc2ccc(Cl)cc2-3)cc1O,,25,MIC,12.5 µg/mL
CCc1c(C(c2ccccc2)n2cncn2)cnn1-c1ccccc1,,,MIC,>200 µM
CN[C@H]1CC[C@@H](c2ccc(Cl)c(Cl)c2)c2ccccc21,broth dilution,92BC2-45,MFC,10 µg/mL
CCC(C)CC(C)CCCCCCCCC(=O)N[C@H]1C[C@@H](O)[C@@H](O)NC(=O)[C@@H]2[C@@H](O)CCN2C(=O)[C@H]([C@H](O)CC(N)=O)NC(=O)[C@H]([C@H](O)[C@@H](O)c2ccc(O)cc2)NC(=O)[C@@H]2C[C@@H](O)CN2C(=O)[C@H]([C@@H](C)O)NC1=O,,20 isolates,MIC,4 µg/mL
CCCC(Cn1ccnc1)c1ccc(F)cc1,,,MIC,10 µg/mL
C[C@@H](c1ncncc1F)[C@](O)(Cn1cncn1)c1ccc(F)cc1F,broth dilution,Clinical isolate (IM 031633),MIC,0.25 µg/mL
C[C@H]1[C@H](O)[C@@H](C)/C=C/C=C/C=C/C=C/C=C/C=C/C=C/[C@H](O[C@@H]2O[C@H](C)[C@@H](O)[C@H](N)[C@@H]2O)C[C@@H]2O[C@](O)(C[C@@H](O)C[C@@H](O)CC[C@H](O)[C@@H](O)C[C@@H](O)CC(=O)O[C@H]1C)C[C@H](O)[C@H]2C(=O)O,,ATCC 90113,MFC,2.5 µg/mL
CC(C)C(CCC(C)C1CC[C@@]2(C)C3=C(CCC12C)C1(C)CC[C@H](O)C(C)(C)C1CC3)SCc1ccccc1,,A.34144,MIC90,25 µg/mL
C=C1CCN(C(C)C(O)(Cn2cncn2)c2ccc(F)cc2F)CC1,,KC-201,MIC,0.2 µg/mL
CCCCCOc1ccc(-c2cc(-c3ccc(C(=O)N[C@H]4C[C@@H](O)[C@@H](O)NC(=O)[C@@H]5[C@@H](O)[C@@H](C)CN5C(=O)[C@H]([C@H](O)CC(N)=O)NC(=O)[C@H]([C@H](O)[C@@H](O)c5ccc(O)c(OS(=O)(=O)O)c5)NC(=O)[C@@H]5C[C@@H](O)CN5C(=O)[C@H]([C@@H](C)O)NC4=O)cc3)no2)cc1,,FMR 8415,MIC,64 µg/mL
CC(C)C(=O)CCC[C@@H]1CO[C@@](Cn2ccnc2)(c2ccc(F)cc2F)C1,,B42419,MIC,0.78 µg/mL
COc1ccc(-c2c(C#N)c(OC)nc3c2CSc2ccc(OC)cc2-3)cc1,,Farwania,MIC,12.5 µg/mL
CC(C)(C)c1c(C(c2ccccc2)n2ccnc2)cnn1-c1ccccc1,,,MIC,66 µM
CCN1/C(=C(\C#N)n2ccnc2)SCC1C,,,MIC,>100 µg/mL
C=C1CCN([C@H](C)[C@](O)(Cn2cncn2)c2ccc(F)cc2F)CC1,,KC-201,MIC,0.05 µg/mL
CCC(C)C(Cn1ccnc1)c1ccc(Cl)cc1Cl,,,MIC,<10 µg/mL
N#CC1=C(N)OC2=C(CSc3ccccc32)C1c1ccc(-c2ccccc2)cc1,,93/V,MIC,50 µg/mL
CC(C)c1c(C(c2ccccc2)n2ccnc2)cnn1-c1ccccc1,,,MIC,66 µM
C=C(CCCCCNC1NCCC2c3ccccc3CCN12)C(C)C,,NFI3102,MIC,4 µg/mL
CC(C)c1c(C(c2ccccc2)n2cncn2)cnn1-c1ccccc1,,,MIC,>200 µM
O=C1C[C@@H](c2cccc(F)c2)Cc2cc(O)cc(O)c21,,Clinical isolate H99,MIC,55 µg/mL
CCCCCC(Cn1ccnc1)c1ccccc1Cl,,,MIC,10 µg/mL
COc1ccc(-c2c(C#N)c(OC)nc3c2CSc2ccc(Cl)cc2-3)cc1OC,,93/V,MIC,25 µg/mL
C[C@H]1[C@H](O)[C@@H](C)/C=C/C=C/C=C/C=C/C=C/C=C/C=C/[C@H](O[C@@H]2O[C@H](C)[C@@H](O)[C@H](N)[C@@H]2O)C[C@@H]2O[C@](O)(C[C@@H](O)C[C@@H](O)CC[C@H](O)[C@@H](O)C[C@@H](O)CC(=O)O[C@H]1C)C[C@H](O)[C@H]2C(=O)O,,12 strains,MIC90,0.125 µg/mL
C[n+]1c2cccc(Cl)c2cc2sc3ccccc3c21,broth dilution,ATCC 90113,MIC,>20 µg/mL
CCCCC(Cn1ccnc1)c1ccccc1Br,,,MIC,10 µg/mL
COc1ccccc1-c1c(C#N)c(OC)nc2c1CSc1ccc(Cl)cc1-2,,Farwania,MIC,6 µg/mL
CCCCCCCC(Cn1ccnc1)c1ccccc1Cl,,,MIC,10 µg/mL
c1ccc(C(c2cnn(-c3ccccc3)c2)n2ccnc2)cc1,,,MIC,200 µM
Nc1[nH]c(=O)ncc1F,,12 strains,MIC90,16 µg/mL
CC(C)C(=O)CCC[C@@H]1CO[C@@](Cn2cncn2)(c2ccc(F)cc2F)C1,,A.34144,MIC,6.25 µg/mL
C=C(CCCCCNC1NCCC2c3ccc(OC)cc3CCN12)C(C)C,,NFI3102,MIC,16 µg/mL
CCC(C)CC(C)CCCCCCCCC(=O)N[C@H]1C[C@@H](O)[C@@H](OCCN)NC(=O)[C@@H]2C[C@@H](O)CN2C(=O)[C@H]([C@H](O)CC(N)=O)NC(=O)[C@H]([C@H](O)[C@@H](O)c2ccc(O)cc2)NC(=O)[C@@H]2C[C@@H](O)CN2C(=O)[C@H]([C@@H](C)O)NC1=O,,20 isolates,MIC,≤0.06 µg/mL
CC1CCS/C(=C(/C#N)n2ccnc2)S1,,,MIC,>100 µg/mL
Cn1nc(Cc2ccc(Cl)cc2)c2ccccc2c1=O,broth dilution,Clinical isolate (IM 972751),MFC,250 µg/mL
CCCCCCCCNC1NCCC2c3ccccc3CCN12,,NFI3102,MIC80,4 µg/mL
CCCCC(Cn1ccnc1)c1ccccc1Cl,,,MIC,100 µg/mL
CCCc1c(C(c2ccccc2)n2cncn2)cnn1-c1ccccc1,,,MIC,>200 µM
CCCCCCC(Cn1ccnc1)c1ccc(F)cc1,,,MIC,<10 µg/mL
COc1ccc(-c2c(C#N)c(OC)nc3c2CSc2ccccc2-3)cc1OC,,25,MIC,6 µg/mL
CCCCCCCCNC1NCCC2c3ccc(OC)cc3CCN12,,NFI3102,MIC80,2 µg/mL
O=C(/C(=C1/SCCN1c1ccccc1)n1ccnc1)c1ccc(Cl)cc1,,,MIC,>100 µg/mL